A mixed list of measured activities; the numbers were collected in NIAID ChemDB.

All rows: whole-cell or culture tests; species: Human cytomegalovirus

Blank or dashed fields: not listed here. Rows are shuffled and stem from different studies. ECn: concentration that inhibits the pathogen or its effect by n%.

smiles | method | measure | strain | cells | result
Nc1nc2c(ncn2[C@@H]2C[C@H](CO)[C@H]2CO)c(=O)[nH]1 | plaque count | EC50 | PC92 (ganciclovir- foscarnet-susceptible) | MRC-5 | 4.01 µM
Nc1nc2c(ncn2COC(CO)CO)c(=O)[nH]1 | virus yield | EC90 | AD169 | HFF | 1.2 µM
Nc1nc2c(ncn2COC(CO)CO)c(=O)[nH]1 | plaque count | EC50 | 759RD100 (drug-resistant) | HFF | 113 µM
Nc1nc2c(ncn2COC(CO)CO)c(=O)[nH]1 | plaque count | EC50 | VR4991 (ganciclovir-resistant) |  | 25 µM
CCCCCCCC/C=C\CCCCCCCCOCCOP(=O)(O)CO[C@H](CO)Cn1ccc(N)nc1=O | plaque count | EC50 | VR4955 (foscarnet-resistant) | HFF | 0.01 µM
COc1cccc(N2CCN(C3=Nc4c(F)cccc4[C@H](CC(=O)O)N3c3cc(C(F)(F)F)ccc3OC)CC2)c1 | plaque count | EC50 | Clinical isolate 10 |  | 0.013 µM
OC[C@H]1O[C@@H](n2c(Br)nc3cc(Cl)c(Cl)cc32)[C@H](O)[C@@H]1O | virus yield | EC90 | AD169 | HFF | 0.36 µM
Nc1cccc2c1C(=O)N(C1C3CC4CC(C3)CC1C4)C2=O | plaque count | EC50 | DAVIS | HEL | 63 µg/mL
Nc1ccn(C[C@@H](CO)OCP(=O)(O)O)c(=O)n1 | plaque count | EC50 | C8914-6 | HFF | 6 µM
Nc1ccn(C[C@@H](CO)OCP(=O)(O)O)c(=O)n1 | plaque count | EC50 | U9070 (ganciclovir-resistant) | HEL | 0.49 µM
COC(=O)[C@H](C)NP(=O)(OC[C@H]1C/C1=C/n1cnc2c(=O)[nH]c(N)nc21)Oc1ccccc1 | cytopathic effect | EC50 | AD169 | HFF | 7.6 µM
Nc1ccn(C[C@@H](CO)OCP(=O)(O)O)c(=O)n1 | plaque count | EC50 | PC92 (ganciclovir- foscarnet-susceptible) | MRC-5 | 0.42 µM
Nc1nc2c(ncn2/C=C2/CC2(CO)CO)c(=O)[nH]1 | plaque count | EC50 | AD169 | HFF | 1.2 µM
O[C@@H]1[C@H](O)[C@H](O)CO[C@H]1n1c(Br)nc2cc(Cl)c(Cl)cc21 | plaque count | EC50 | GDGRP53 (drug-resistant) | HFF | 2.9 µM
O=C(O)P(=O)(O)O | plaque count | EC50 | Clinical isolates | HEL | 55 µM
O=C(NCc1ccc(Cl)cc1)c1cn2c3c(cc(CN4CCOCC4)cc3c1=O)OC(c1cccnc1)C2 | plaque count | EC50 | 1117/R (CDV GCV-resistant) | HFF | 1.5 µM
Nc1nc2c(ncn2COC(CO)CO)c(=O)[nH]1 | plaque count | EC50 | 48041 (GCV-susceptible) |  | 27 µM
Nc1nc(NC2CC2)c2ncn(C=C3CC3CO)c2n1 | plaque count | EC50 | CH | HFF | 2.7 µM
OC[C@@H]1O[C@@H](n2c(Cl)nc3cc(Cl)c(Cl)cc32)[C@H](O)[C@@H]1O | plaque count | EC50 | R56 (BDCRB- maribavir-resistant) | HFF | 51 µM
O=C(NCc1ccc(Cl)cc1)c1c[nH]c2ccc(CCCO)cc2c1=O | plaque count | EC50 | GRU |  | 0.5 µM
Nc1ccn(C[C@H]2COP(=O)(O)CO2)c(=O)n1 | plaque count | EC50 | AD169 (ganciclovir foscarnet-susceptible) | MRC-5 | 0.51 µM
Nc1ccn(C=C2C[C@H]2CO)c(=O)n1 | plaque count | EC50 | RCdelta97 | HFF | 75 µM
COc1ccccc1CNC(=O)C1=Cc2ccncc2CC1 | plaque count | EC50 | AD169 | MRC-5 | 13.8 µM
OC[C@H]1O[C@@H](n2c(Br)nc3cc(Cl)c(Cl)cc32)[C@H](O)[C@@H]1O | plaque count | EC50 | 1117R (drug-resistant) | HFF | 2.8 µM
O=C(O)c1ccccc1C(=O)NC12CC3CC(C1)CC(C(=O)O)(C3)C2 | plaque count | EC50 | DAVIS | HEL | >100 µg/mL
Nc1nc2c(ncn2C=C2CC2CO)c(=O)[nH]1 | cytopathic effect | EC50 | AD169 | HFF | 0.04 µM
CC/C=C\Cn1c(=O)sc2c(=O)[nH]c(N)nc21 | plaque count | EC50 | P8 (DHPG-S) |  | <0.4 µM
CC(C)Nc1nc2cc(Cl)c(Cl)cc2n1[C@H]1O[C@@H](CO)[C@H](O)[C@@H]1O | plaque count | EC50 | C9003 | MRC-5 | 0.56 µM
O=C1c2ccccc2C(=O)N1C12CC3CC(CC(C(=O)O)(C3)C1)C2 | plaque count | EC50 | AD169 | HEL | >100 µg/mL
CC(C)Nc1nc2cc(Cl)c(Cl)cc2n1[C@H]1O[C@@H](CO)[C@H](O)[C@@H]1O | virus yield | EC90 | 2916R (1263W94-resistant) | HFF | 0.3 µM
O=C1NCC2(C(=O)C3C=CC=CC13)C1CC3CC(C1)CC2C3 | plaque count | EC50 | DAVIS | HEL | >20 µg/mL
CC(C)Oc1ccccc1CNC(=O)c1ccc2cnccc2n1 | plaque count | EC50 | AD169 | MRC-5 | 0.05 µM
Nc1nc2c(ncn2COC(CO)CO)c(=O)[nH]1 | plaque count | EC50 | PAAR | MRC-5 | 5.49 µM
CCCCCCCCCCCCOCCCOP(=O)(O)CO[C@H](CO)Cn1ccc(N)nc1=O | plaque count | EC50 | 759rD100 | HFF | 0.002 µM
C[C@@H]1O[C@@H](n2c(Cl)nc3cc(Cl)c(Cl)cc32)[C@H](O)[C@@H]1O | virus yield | EC50 | AD169 | HFF | 0.82 µM
Cn1cc(C(=O)NCc2ccc(Cl)cc2)c(=O)c2cc(CN3CCOCC3)ccc21 | plaque count | EC50 | C8708/17-1-1 | HFF | 3.7 µM
O=C(NCCc1ccccc1)C1=Cc2ccncc2CC1 | plaque count | EC50 | D16 | MRC-5 | 4.1 µM
CCCCCCCCCCCCCCCCOP(=O)(O)CO[C@H](CO)Cn1ccc(N)nc1=O | plaque count | EC50 | TOWNE | HFF | 0.006 µM
Nc1nc2c(ncn2COC(CO)CO)c(=O)[nH]1 | hybridisation | EC50 | 2916RAE (LEU397ARG) | MRC-5 | 0.31 µM

The last 5 rows once more:

smiles | method | measure | strain | cells | result
C[C@@H]1O[C@@H](n2c(Cl)nc3cc(Cl)c(Cl)cc32)[C@H](O)[C@@H]1O | virus yield | EC50 | AD169 | HFF | 0.82 µM
Cn1cc(C(=O)NCc2ccc(Cl)cc2)c(=O)c2cc(CN3CCOCC3)ccc21 | plaque count | EC50 | C8708/17-1-1 | HFF | 3.7 µM
O=C(NCCc1ccccc1)C1=Cc2ccncc2CC1 | plaque count | EC50 | D16 | MRC-5 | 4.1 µM
CCCCCCCCCCCCCCCCOP(=O)(O)CO[C@H](CO)Cn1ccc(N)nc1=O | plaque count | EC50 | TOWNE | HFF | 0.006 µM
Nc1nc2c(ncn2COC(CO)CO)c(=O)[nH]1 | hybridisation | EC50 | 2916RAE (LEU397ARG) | MRC-5 | 0.31 µM